PubChem BioAssay AID504761, Drosophila RNAi Screening Center, 2011
Aim: 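Insect host genes that dengue virus relies on to spread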 (primary screen). Cells: D.Mel-2 cells from Drosophila. Reagents: long dsRNA against Drosophila genes. Challenge: infection with dengue virus type 2; dose and infection time not stated. Detection: 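Per well on two replicate plates, imaging gave the percent of cells positive for viral envelope protein, ranked by infection, and a nuclear count of cells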. Scale: infection score: higher = more virus-infected cells; cell count: higher = more cells in the well. Rule for the call: 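Very low infection ranking in both replicate wells (chance probability at most 0.065), then a retest showing infection dropped 1.5-fold or more at p below 0.05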. Calls: active = confirmed: knock-down lowers infection; inactive = not picked or not confirmed.
In all, the deposit lists about 22,000 reagents; below is a random part of those with a known target gene and a result. Of all reagents, 116 (0.52%) were called active. 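Calls depend on retest data that are not deposited; infection was ranked per plate without normalising between plates; the unit of the infection score is not given.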 The raw values are shown without normalisation. The record does not give: the amount of reagent, the time to read-out.

gene,amplicon,"infection score, replicate 1","infection score, replicate 2","cell count, replicate 1","cell count, replicate 2",Call
Oatp58Da,DRSC04365,35.8,27.9,5862,3985,inactive
Oatp58Da,DRSC25499,11.6,7.75,6009,6384,inactive
Arl6IP1,DRSC14231,1.13,5.7,6553,6530,inactive
pck,DRSC18565,,27.1,,5345,inactive
CG16998,DRSC10235,3.56,3.14,6571,6021,inactive
Jheh2,DRSC06530,2.78,1.5,6252,5332,inactive
Jheh2,DRSC25496,14.7,1.48,5409,5398,inactive
Nepl10,DRSC07212,20.8,17.2,5709,6685,inactive
Prosalpha4,DRSC20271,10.3,9.6,5652,5374,inactive
Prosalpha4,DRSC25287,1.81,8.75,6579,5727,inactive
Cyp9h1,DRSC07391,7.48,15.3,7069,6849,inactive
Cyp9h1,DRSC26493,2.18,3.9,6248,5541,inactive
CG34325,DRSC19802,2.02,18.9,6426,6014,inactive
CG34325,DRSC20200,1.86,8.24,6730,6529,inactive
tsg,DRSC20380,1.6,2.79,6013,6693,inactive
tsg,DRSC25436,1.1,0.74,6705,6650,inactive
CG42540,DRSC08328,4.24,3.53,5592,5500,inactive
CG42540,DRSC23011,4.47,3.09,5973,6466,inactive
CG42540,DRSC25814,9.39,7.06,6274,6882,inactive
CG42540,DRSC28858,7.02,0.25,1211,403,inactive
CG31125,DRSC13684,1.94,1.09,6032,5326,inactive
CG31125,DRSC25124,2.84,5.46,6796,6978,inactive
CG5910,DRSC11786,4.88,3.06,6144,6435,inactive

Laid out differently: entries from further up.
gene	amplicon	infection score, replicate 1	infection score, replicate 2	cell count, replicate 1	cell count, replicate 2	Call
CG34325	DRSC19802	2.02	18.9	6426	6014	inactive
CG34325	DRSC20200	1.86	8.24	6730	6529	inactive
